Experimental findings from patent US20240092860 are described below.

In assay [1] the target is T1, recombinant cynomolgus CD38 protein (Sino Biological), cynomolgus monkey, Q5VAN0 44-301.
T1 sequence: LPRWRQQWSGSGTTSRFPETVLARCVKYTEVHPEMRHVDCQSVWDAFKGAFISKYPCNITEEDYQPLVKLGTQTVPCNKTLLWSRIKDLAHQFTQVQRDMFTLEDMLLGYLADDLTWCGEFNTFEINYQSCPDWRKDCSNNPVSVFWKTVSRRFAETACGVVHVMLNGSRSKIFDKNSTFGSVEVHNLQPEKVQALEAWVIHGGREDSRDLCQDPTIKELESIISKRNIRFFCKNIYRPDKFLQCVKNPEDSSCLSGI

Assay [2] has as its target T2, rhesus CD38 on BLCL-C162 cells, rhesus, Q5VAN0 1-301.
T2 sequence: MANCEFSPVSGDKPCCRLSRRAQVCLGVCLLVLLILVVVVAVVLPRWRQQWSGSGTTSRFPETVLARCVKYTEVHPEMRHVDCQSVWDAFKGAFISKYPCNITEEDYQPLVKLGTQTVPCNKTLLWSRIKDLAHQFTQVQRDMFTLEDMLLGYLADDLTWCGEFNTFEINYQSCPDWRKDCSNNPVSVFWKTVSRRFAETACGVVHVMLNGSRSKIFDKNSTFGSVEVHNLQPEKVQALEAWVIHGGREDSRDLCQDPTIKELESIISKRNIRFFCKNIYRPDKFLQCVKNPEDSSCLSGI
The experiment in a line: cell-based or functional assay.

Assay [3] has as its target human CD38 on the surface of CD38 positive human cells (MOLP-8, H929, ST486, Daudi, ANBL6, RPMI8226,, Homo sapiens, P28907 1-300). The experiment in a line: cell-based or functional assay.
Assay [4] addresses recombinant human CD38 protein (Sino Biological), human, P28907 43-300. The experiment in a line: ELISA, plate-coated recombinant human CD38, detection by anti-toxin antibody. A general note: ELISA stands for enzyme-linked immunosorbent assay.

For orientation: Kd means the equilibrium constant for the complex coming apart. For the substance CD38-binding protein #2 (SEQ ID NO:77), the Kd in assay [1] was determined as 0.644 µg/mL. Besides, the Cytotoxicity CD50, rhesus BLCL-C162 cells in assay [2] is 1130 ng/mL.

For the substance CD38-binding protein #3 (SEQ ID NO:78), the Kd in assay [1] turned out to be 0.247 µg/mL. In assay [3], the Cytotoxicity CD50, Daudi cells turned out to be 0.8 ng/mL; the Cytotoxicity CD50, H929 cells worked out at 0.2 ng/mL; the Cytotoxicity CD50, MOLP-8 cells was found to be 2.2 ng/mL; the Cytotoxicity CD50, ST486 cells was below 0.1 ng/mL. The Kd in assay [4] was determined as 0.0133 µg/mL.

Substance CD38-binding protein #1 (SEQ ID NO:76) gave a Cytotoxicity CD50, rhesus BLCL-C162 cells in assay [2] of 4620 ng/mL.

Take CD38-binding protein #4 (SEQ ID NO:79): the Kd in assay [1] stood at 0.67 µg/mL. In assay [2], this substance had a Cytotoxicity CD50, rhesus BLCL-C162 cells of 26 ng/mL.
